# In PMC4658428 (Frontiers in Microbiology, 2015):
# Tests used:
# LdtR mutant R30A = conditions: benzbromarone:LdtR molar ratio, protein at around 50% DNA binding
# LdtR mutant R37A = conditions: benzbromarone:LdtR molar ratio, protein at around 50% DNA binding
# LdtR mutant Y81A [1] = conditions: benzbromarone:LdtR molar ratio, protein at around 50% DNA binding
# LdtR mutant Y131A [2] = conditions: benzbromarone:LdtR molar ratio, protein at around 50% DNA binding
# LdtR mutant V26A [3] = conditions: benzbromarone:LdtR molar ratio, protein at around 50% DNA binding
# LdtR mutant N65A [4] = conditions: benzbromarone:LdtR molar ratio, protein at around 50% DNA binding
# LdtR mutant V26A [5] = conditions: 1.5:1 ratio
# LdtR mutant Y131A [6] = conditions: 1.5:1 ratio
# LdtR mutant N65A [7] = conditions: high ligand:protein molar ratios
# LdtR mutant Y81A [8] = conditions: high ligand:protein molar ratios
structure (smiles),measurement,setting,value
CCc1oc2ccccc2c1C(=O)c1cc(Br)c(O)c(Br)c1 [benzbromarone],excess of benzbromarone at which the LdtR:DNA complex is disrupted,LdtR mutant R30A,10 fold excess
same,excess of benzbromarone at which the LdtR:DNA complex is disrupted,LdtR mutant R37A,10 fold excess
same,excess of benzbromarone at which the LdtR:DNA complex is disrupted,LdtR mutant Y81A [1],10 fold excess
same,excess of benzbromarone at which the LdtR:DNA complex is disrupted,LdtR mutant Y131A [2],10 fold excess
same,excess of benzbromarone required to disrupt the LdtR:DNA complex,LdtR mutant V26A [3],20 fold excess
same,excess of benzbromarone required to disrupt the LdtR:DNA complex,LdtR mutant N65A [4],20 fold excess
same,change in melting temperature (ΔTm),LdtR mutant V26A [5],-5.3 ± 0.4 °C
same,change in melting temperature (ΔTm),LdtR mutant Y131A [6],-5.9 ± 0.3 °C
same,change in melting temperature (ΔTm),LdtR mutant N65A [7],-3.3 ± 0.4 °C
same,change in melting temperature (ΔTm),LdtR mutant Y81A [8],-3.1 ± 0.4 °C
